Experimental data published in publication PMC8445491.

Molecular target: MtrA~P phosphorylated via MtrB' M517L (UniProt P9WGM7)
Test: EMSA
Details: recombinant protein; protein details: 6xHis (pProEx-HT); label: 32P 5' end label; probe letters rebuilt from the primers and the genome

TTGCGCCCTTTCACCTCACGATGAGTTCGATCCCGTGGCTAGCGCCCCGCTAGCGTGGGGACTGCCAACGACGAATGCCCATGACGCGTGACCCGCCACGACGGCCGCAACAGCAGTCGAACAACAACCGTAGAGCTTCTCACGTCAACTTGAAAGTTCATCATTGACCTCTGACCCACCGCGACGAGCCAGTTATGCGGGTGGTATCCAGCGAACGATCCCCAGCGCTGTCTTTCCAAGAACAAACGACGAAGAAATCTCGGTAACAGTATTAGAGGGTGTGCAGTTTGGGGACAGTCTGGTCTTGGTGCAGGTCGACGTCGGTCGGAGTTGTGGATGACGGTGGCGATGACTGTGGGGTGTGTGTTGGGTCGGTGGGGATGAGGCGTGGGTTGTGAACGGAACCGCCGGGACTGTATGAGTCTGTGCGCGGTTTGTGCACAGCGACACTCACAGCCAATCTCTGTGACTGGTGTGACCTGGGAGAGAGAAGTTTTTTTAAGAACGTTGTCGGAAGAACACGCCGTGCTAGCGCTTGGAGCGCTGACGGATG (double strand) [oriC 526 bp]
binding result: binds

For at least one entry, the source does not settle the construct or the ends of the probe.
